Measured values from several laboratories, pooled; numbers as filed in NIAID ChemDB.

All rows: whole-cell or culture tests; agent: Hepatitis C virus; read-out: EC50

ECn is the concentration giving n% inhibition of infection, replication or growth. Conditions beyond the fields shown may differ between rows. a–b is a range or a potency band.

{"SMILES": "COC(=O)N[C@H](C(=O)N1CCC[C@@H]1c1ncc(-c2cnc(-c3ccc(-c4nc([C@H]5CCCN5C(=O)[C@@H](NC(=O)OC)C5CC5)[nH]c4C(F)(F)F)cc3)nc2)[nH]1)C1CC1", "strain": "1b", "result": "0.00001–0.000999 µM"}
{"SMILES": "C=CC1CC1(NC(=O)[C@@H]1C[C@@H](OC(=O)Nc2ccccc2F)CN1C(=O)[C@@H](NC(=O)OC(C)(C)C)C(C)(C)C)C(=O)NS(=O)(=O)C1CC1", "strain": "1b", "cell line": "Huh7", "read by": "replicon", "result": "1–10 µM"}
{"SMILES": "O=C([C@@H](O)c1ccccc1)N1CCC[C@H]1c1ncc(-c2ccc(-c3ccc(-c4cnc([C@@H]5CCCN5C(=O)[C@H](O)c5ccccc5)[nH]4)cn3)cc2)[nH]1", "strain": "1b", "result": "0.001–0.099 µM"}
{"SMILES": "C=CC1CC1(NC(=O)[C@@H]1C[C@@H](OC(=O)Nc2sccc2C(=O)OC)CN1C(=O)[C@@H](NC(=O)OC(C)(C)C)C(C)(C)C)C(=O)NS(=O)(=O)C1CC1", "strain": "1b", "cell line": "Huh7", "read by": "replicon", "result": "0.1–1 µM"}
{"SMILES": "COc1cc(-c2cc(N(C(=O)C3CCC(C)CC3)C(C)C)c(C(=O)O)s2)ccc1NC(=O)c1cscn1", "strain": "1a", "read by": "replicon", "result": "<0.5 µM"}
{"SMILES": "CNC(=O)c1c(-c2ccc(F)cc2)oc2cc(N(CCO)S(C)(=O)=O)c(C3CC3)cc12", "strain": "JFH1 Genotype 2a", "cell line": "Huh7.5", "read by": "luciferase", "result": "0.0926 µM"}
{"SMILES": "COC(=O)N[C@@H](C)C(=O)N1CCC[C@@H]1c1ncc(-c2ccc(-c3ncc(-c4cnc([C@H]5CCCN5C(=O)[C@H](C)NC(=O)OC)[nH]4)cn3)cc2)[nH]1", "strain": "1b", "result": "0.00001–0.000999 µM"}
{"SMILES": "Cc1c(C(=O)Nc2ccc(Cl)cc2)nn(-c2ccccc2)c1-n1cccc1", "strain": "Con1 (gt 1b)", "cell line": "Huh 5-2", "read by": "luciferase / replicon", "result": "16.5 µM"}
{"SMILES": "CO[C@H](C(=O)N1CCC[C@H]1c1ncc(-c2ccc(-c3ccc(-c4cnc([C@@H]5CCCN5C(=O)[C@H](OC)c5ccccc5)[nH]4)cn3)cc2)[nH]1)c1ccccc1", "strain": "1b", "result": "0.00001–0.000999 µM"}
{"SMILES": "Nc1ncnc2c1c(-c1ccoc1)cn2[C@H]1O[C@H](CO)[C@@H](O)C1(F)F", "strain": "2a", "cell line": "HCV replicon", "read by": "replicon", "result": "14.45 µM"}
{"SMILES": "COC(=O)N[C@H](C(=O)N1CCC[C@@H]1c1ncc(-c2ccc(-c3ccc(-c4cnc([C@@]5(C)CCCN5C(=O)[C@@H](Nc5noc(N)n5)C(C)C)[nH]4)cc3)cc2)[nH]1)C(C)C", "strain": "1b", "result": "0.00001–0.000999 µM"}
{"SMILES": "Nc1ncnc2c1c(I)cn2[C@H]1O[C@H](CO)[C@@H](O)C1(F)F", "strain": "1b", "cell line": "HCV replicon", "read by": "replicon", "result": "0.7 µM"}
{"SMILES": "C[C@@H](c1ncc(-c2ccc(-c3ncc(-c4cnc([C@H]5CCCN5C(=O)[C@@H](c5ccccc5)N5CCCCC5)[nH]4)cn3)cc2)[nH]1)N(C)C(=O)[C@@H](c1ccccc1)N1CCCCC1", "strain": "1b", "result": "0.00001–0.000999 µM"}
{"SMILES": "Nc1ncnc2c1c(-c1ccco1)cn2[C@H]1O[C@H](CO)[C@@H](O)C1(F)F", "strain": "1b", "cell line": "HCV replicon", "read by": "replicon", "result": "1.63 µM"}
{"SMILES": "C=CC1CC1(NC(=O)[C@@H]1C[C@@H](OC(=O)Nc2cc(Cl)cc(Cl)c2)CN1C(=O)[C@@H](NC(=O)OC(C)(C)C)C(C)(C)C)C(=O)NS(=O)(=O)C1CC1", "strain": "1b", "cell line": "Huh7", "read by": "replicon", "result": "0.1–1 µM"}
{"SMILES": "Nc1ncnc2c1c(-c1ccoc1)cn2[C@@H]1O[C@H](CO)[C@@H](O)C1(F)F", "strain": "1b", "cell line": "HCV replicon", "read by": "replicon", "result": "13.18 µM"}
{"SMILES": "CC1CCC(C(=O)N(CC2CC2)c2cc(-c3ccc(NC(=O)c4ccn[nH]4)cc3)sc2C(=O)O)CC1", "strain": "1a", "read by": "replicon", "result": "<0.5 µM"}
{"SMILES": "COC(=O)N[C@H](C(=O)N1CCC[C@@H]1c1ncc(-c2ccc(-c3ncc(-c4cnc([C@H]5CCCN5C(=O)[C@@H](NC(=O)OC)C5CC5)[nH]4)cn3)cc2)[nH]1)C1CC1", "strain": "1b", "result": "0.00001–0.000999 µM"}
{"SMILES": "C=CC1CC1(NC(=O)[C@@H]1C[C@@H](OC(=O)Nc2ccccc2C(=O)OCC)CN1C(=O)[C@@H](NC(=O)OC(C)(C)C)C(C)(C)C)C(=O)NS(=O)(=O)C1CC1", "strain": "1b", "cell line": "Huh7", "read by": "replicon", "result": "<0.1 µM"}
{"SMILES": "N#Cc1c(C(=O)Nc2ccc(Cl)cc2)nn(-c2ccccc2)c1-n1cccc1", "strain": "Con1 (gt 1b)", "cell line": "Huh 5-2", "read by": "luciferase / replicon", "result": "7.8 µM"}
{"SMILES": "C=CC1CC1(NC(=O)[C@@H]1C[C@@H](OC(=O)Nc2ccccc2-c2ncn[nH]2)CN1C(=O)[C@@H](NC(=O)OC(C)(C)C)C(C)(C)C)C(=O)NS(=O)(=O)C1CC1", "strain": "1b", "cell line": "Huh7", "read by": "replicon", "result": ">10 µM"}
{"SMILES": "Nc1ncnc2c1c(-c1cc3ccccc3o1)cn2[C@@H]1O[C@H](CO)[C@@H](O)C1(F)F", "strain": "2a", "cell line": "HCV replicon", "read by": "replicon", "result": "1.62 µM"}
{"SMILES": "C=CC1CC1(NC(=O)[C@@H]1C[C@@H](OC(=O)Nc2cc(C(=O)OCC)ccc2N2CCCCC2)CN1C(=O)[C@@H](NC(=O)OC(C)(C)C)C(C)(C)C)C(=O)NS(=O)(=O)C1CC1", "strain": "1b", "cell line": "Huh7", "read by": "replicon", "result": "0.1–1 µM"}
{"SMILES": "O=C(Nc1ccc(Cl)cc1)c1cnn(-c2ccc(Cl)cc2)c1-n1cccc1", "strain": "Con1 (gt 1b)", "cell line": "Huh 5-2", "read by": "luciferase / replicon", "result": "13.7 µM"}
{"SMILES": "CC1CCC(C(=O)N(c2cc(-c3ccc(NC(=O)c4cscn4)cc3)sc2C(=O)[O-])C(C)C)CC1.C[NH2+]C[C@H](O)[C@@H](O)[C@H](O)[C@H](O)CO", "strain": "1a", "read by": "replicon", "result": "<0.5 µM"}
{"SMILES": "C=CC1CC1(NC(=O)[C@@H]1C[C@@H](OC(=O)Nc2cc(C(C)=O)ccc2N2CCC(C(=O)OCC)CC2)CN1C(=O)[C@@H](NC(=O)OC(C)(C)C)C(C)(C)C)C(=O)NS(=O)(=O)C1CC1", "strain": "1b", "cell line": "Huh7", "read by": "replicon", "result": "0.1–1 µM"}
{"SMILES": "CCN(CC)[C@@H](C(=O)N1CCC[C@@H]1c1ncc(-c2ccc(-c3ncc(-c4cnc([C@H]5CCCN5C(=O)[C@@H](NC(=O)OC)C(C)C)[nH]4)cn3)cc2)[nH]1)c1ccccc1", "strain": "1b", "result": "0.00001–0.000999 µM"}
{"SMILES": "CC(C)N(C(=O)C1CCC(C(F)(F)F)CC1)c1cc(-c2ccc(NC(=O)c3cscn3)cc2)sc1C(=O)O", "strain": "1b", "read by": "replicon", "result": "<0.5 µM"}
{"SMILES": "C=CC1CC1(NC(=O)[C@@H]1C[C@@H](OC(=O)Nc2ccccc2I)CN1C(=O)[C@@H](NC(=O)OC(C)(C)C)C(C)(C)C)C(=O)NS(=O)(=O)C1CC1", "strain": "1b", "cell line": "Huh7", "read by": "replicon", "result": "0.1–1 µM"}
{"SMILES": "CC1CCC(C(=O)N(c2cc(-c3ccc(NC(=O)c4cccnn4)cc3)sc2C(=O)O)C(C)C)CC1", "strain": "1a", "read by": "replicon", "result": "<0.5 µM"}
{"SMILES": "C=CC1CC1(NC(=O)[C@@H]1C[C@@H](OC(=O)Nc2cc(Cl)nc(Cl)c2)CN1C(=O)[C@@H](NC(=O)OC(C)(C)C)C(C)(C)C)C(=O)NS(=O)(=O)C1CC1", "strain": "1b", "cell line": "Huh7", "read by": "replicon", "result": ">10 µM"}
{"SMILES": "N#Cc1c(C(=O)Nc2ccc(Cl)c(Cl)c2)nn(-c2ccc(Cl)cc2)c1-n1cccc1", "strain": "Con1 (gt 1b)", "cell line": "Huh 5-2", "read by": "luciferase / replicon", "result": "50.5 µM"}

Repeating the final 2 entries:

| SMILES | strain | cell line | read by | result |
|---|---|---|---|---|
| C=CC1CC1(NC(=O)[C@@H]1C[C@@H](OC(=O)Nc2cc(Cl)nc(Cl)c2)CN1C(=O)[C@@H](NC(=O)OC(C)(C)C)C(C)(C)C)C(=O)NS(=O)(=O)C1CC1 | 1b | Huh7 | replicon | >10 µM |
| N#Cc1c(C(=O)Nc2ccc(Cl)c(Cl)c2)nn(-c2ccc(Cl)cc2)c1-n1cccc1 | Con1 (gt 1b) | Huh 5-2 | luciferase / replicon | 50.5 µM |